# Assay results published in publication PMC5798227.
# Target: DS-SOSIP.664 trimer (BG505) (HIV-1 BG505 (clade A))
# Assay: cryo-EM structure
substance,measurement,value
4-domain soluble CD4 (cryo-EM sample) (from UniProt P01730) (receptor),stoichiometry N (CD4 per trimer),1
